{"source": "patent US20060122276A1", "about": "“Agent for inhibiting membrane virus reproduction, method for the production thereof, pharmaceutical composition and method for inhibiting viral infections” (priority 2003, published 2006)", "key": {"[1]": {"tested_on": "HIV-1"}, "[2]": {"tested_on": "HIV-1", "assay": "Treatment of HIV-1-infected patients, blood sample analyses"}}, "note": "Read-outs that look alike come from different tables or passages of the source."}
{"substance": "sodium salt of fullerene-polyamino-caproic acid", "values": [{"measurement": "Viability of cells, %", "setting": "[1]; 0.25 μg/ml, HIV-1-infected lymphoblastoid cells, 5th day", "result": 67, "unit": "%"}, {"measurement": "Viability of cells, %", "setting": "[1]; 0.5 μg/ml, HIV-1-infected lymphoblastoid cells, 5th day", "result": 71, "unit": "%"}, {"measurement": "Viability of cells, %", "setting": "[1]; 1 μg/ml, 2 hrs of contact, washing off of cells No, 6th day", "result": 87, "unit": "%"}, {"measurement": "Viability of cells, %", "setting": "[1]; 1 μg/ml, 2 hrs of contact, washing off of cells No, 8th day", "result": 87, "unit": "%"}, {"measurement": "Viability of cells, %", "setting": "[1]; 1 μg/ml, 2 hrs of contact, washing off of cells Yes, 6th day", "result": 69, "unit": "%"}, {"measurement": "Viability of cells, %", "setting": "[1]; 1 μg/ml, 2 hrs of contact, washing off of cells Yes, 8th day", "result": 17, "unit": "%"}, {"measurement": "Viability of cells, %", "setting": "[1]; 1.0 μg/ml, HIV-1-infected lymphoblastoid cells, 5th day", "result": 79, "unit": "%"}, {"measurement": "Viability of cells, %", "setting": "[1]; 1 μg/ml, exposure 1 hr, washing off of cells Yes, 6th day", "result": 83, "unit": "%"}, {"measurement": "Viability of cells, %", "setting": "[1]; 1 μg/ml, exposure 1 hr, washing off of cells Yes, 8th day", "result": 64, "unit": "%"}, {"measurement": "Viability of cells, %", "setting": "[1]; 1 μg/ml, exposure 2 hrs, washing off of cells Yes, 6th day", "result": 88, "unit": "%"}, {"measurement": "Viability of cells, %", "setting": "[1]; 1 μg/ml, exposure 2 hrs, washing off of cells Yes, 8th day", "result": 79, "unit": "%"}, {"measurement": "Viability of cells, %", "setting": "[1]; 1 μg/ml, exposure 24 hrs, washing off of cells Yes, 6th day", "result": 87, "unit": "%"}, {"measurement": "Viability of cells, %", "setting": "[1]; 1 μg/ml, exposure 24 hrs, washing off of cells Yes, 8th day", "result": 89, "unit": "%"}, {"measurement": "Viability of cells, %", "setting": "[1]; 1 μg/ml, exposure during the entire experiment, washing off of cells No, 6th day", "result": 83, "unit": "%"}, {"measurement": "Viability of cells, %", "setting": "[1]; 1 μg/ml, exposure during the entire experiment, washing off of cells No, 8th day", "result": 84, "unit": "%"}, {"measurement": "Viability of cells, %", "setting": "[1]; 10 μg/ml, 2 hrs of contact, washing off of cells No, 6th day", "result": 89, "unit": "%"}, {"measurement": "Viability of cells, %", "setting": "[1]; 10 μg/ml, 2 hrs of contact, washing off of cells No, 8th day", "result": 89, "unit": "%"}, {"measurement": "Viability of cells, %", "setting": "[1]; 10 μg/ml, 2 hrs of contact, washing off of cells Yes, 6th day", "result": 74, "unit": "%"}, {"measurement": "Viability of cells, %", "setting": "[1]; 10 μg/ml, 2 hrs of contact, washing off of cells Yes, 8th day", "result": 35, "unit": "%"}, {"measurement": "Viability of cells, %", "setting": "[1]; 10 μg/ml, HIV-1-infected lymphoblastoid cells, 5th day", "result": 87, "unit": "%"}, {"measurement": "Viability of cells, %", "setting": "[1]; 10 μg/ml, exposure 2 hrs (first such line, r25), washing off of cells Yes, 6th day", "result": 84, "unit": "%"}, {"measurement": "Viability of cells, %", "setting": "[1]; 10 μg/ml, exposure 2 hrs (first such line, r25), washing off of cells Yes, 8th day", "result": 91, "unit": "%"}, {"measurement": "Viability of cells, %", "setting": "[1]; 10 μg/ml, exposure 2 hrs (second such line, r29), washing off of cells Yes, 6th day", "result": 93, "unit": "%"}, {"measurement": "Viability of cells, %", "setting": "[1]; 10 μg/ml, exposure 2 hrs (second such line, r29), washing off of cells Yes, 8th day", "result": 91, "unit": "%"}, {"measurement": "Viability of cells, %", "setting": "[1]; 10 μg/ml, exposure 24 hrs, washing off of cells Yes, 6th day", "result": 92, "unit": "%"}, {"measurement": "Viability of cells, %", "setting": "[1]; 10 μg/ml, exposure 24 hrs, washing off of cells Yes, 8th day", "result": 91, "unit": "%"}, {"measurement": "Viability of cells, %", "setting": "[1]; 10 μg/ml, exposure during the entire experiment, washing off of cells No, 6th day", "result": 91, "unit": "%"}, {"measurement": "Viability of cells, %", "setting": "[1]; 10 μg/ml, exposure during the entire experiment, washing off of cells No, 8th day", "result": 88, "unit": "%"}, {"measurement": "Viability of cells, %", "setting": "[1]; 100 μg/ml, HIV-1-infected lymphoblastoid cells, 5th day", "result": 89, "unit": "%"}, {"measurement": "Viability of cells, %", "setting": "[1]; preparation 1 hr after infecting, HIV-1", "result": 92, "unit": "%"}, {"measurement": "Viability of cells, %", "setting": "[1]; preparation 2 hrs before infecting, HIV-1", "result": 96, "unit": "%"}, {"measurement": "Viability of cells, %", "setting": "[1]; preparation + virus simultaneously, HIV-1", "result": 94, "unit": "%"}, {"measurement": "T-index", "setting": "[2]; Patient A, after 1 month, 20 mg rectal suppository every day, before treatment 0.9", "result": 0.8}, {"measurement": "T-index", "setting": "[2]; Patient A, after 2 months, 20 mg rectal suppository every day, before treatment 0.9", "result": 1.1}, {"measurement": "T-index", "setting": "[2]; Patient A, after 3 months, 20 mg rectal suppository every day, before treatment 0.9", "result": 0.9}, {"measurement": "T-index", "setting": "[2]; Patient B, after 1 month, 20 mg rectal suppositories every three days, before treatment 0.6", "result": 1.3}, {"measurement": "T-index", "setting": "[2]; Patient B, after 2 months, 20 mg rectal suppositories every three days, before treatment 0.6", "result": 1.0}, {"measurement": "T-index", "setting": "[2]; Patient B, after 3 months, 20 mg rectal suppositories every three days, before treatment 0.6", "result": 0.8}]}
